Pooled drug test results. Numbers come from NIAID ChemDB, via PubChem.

Common to all: tests on isolated targets; agent: Herpes simplex virus 1; target: DNA polymerase; read-out: IC50

ICn: concentration for n% inhibition. Lines come from different laboratories, so protocols vary.

smiles,value
COP(=O)(O)C(=O)O,>35 µM
CP(=O)(O)CC(=O)O,145 µg/mL
Cc1ccc(OP(=O)(O)C(=O)O)cc1,35 µM
O=C(O)C(F)(Br)P(=O)(O)O,37 µM
O=C(O)CP(=O)(O)O,0.22 µg/mL
O=C(Oc1ccccc1)P(=O)(O)O,10 µM
CC(Cl)(C(=O)O)P(=O)(O)O,>100 µM
O=C(CP(=O)(O)O)OC1CCCCC1,49 µg/mL
O=P(O)(O)C(F)(Cl)P(=O)(O)O,>100 µM
COP(=O)(O)CC(=O)O,19.9 µg/mL
O=C(O)C(O)P(=O)(O)O,2 µM
O=P(O)(O)C(Cl)(Br)P(=O)(O)O,>100 µM
O=C(O)CP(=O)(O)O,0.5 µM
O=P(O)(O)C(F)P(=O)(O)O,>100 µM
COC(=O)[C@H]1[C@H](O)[C@@H](C)[C@@H](O)[C@](C)(O)/C=C(\C)C2=C3C(=C(C)C(=O)c4c(O)c(c(C)c(OC(C)=O)c43)NC(=O)/C(C)=C/C=C\[C@@H](C)C(O)[C@@H](C)[C@H]1O)OCO2,100 µM

2 of the rows above, restated:

| smiles | value |
|---|---|
| COC(=O)[C@H]1[C@H](O)[C@@H](C)[C@@H](O)[C@](C)(O)/C=C(\C)C2=C3C(=C(C)C(=O)c4c(O)c(c(C)c(OC(C)=O)c43)NC(=O)/C(C)=C/C=C\[C@@H](C)C(O)[C@@H](C)[C@H]1O)OCO2 | 100 µM |
| O=C(O)C(O)P(=O)(O)O | 2 µM |